Laboratory results taken from the supplement of paper PMC9931576.
Human monoclonal antibodies against the spike receptor-binding domain (heavy:light variable regions). IC50 against pseudoviruses bearing the spike of naturally observed variants; lower = stronger; >10 µg/ml means not reached at the top dose. No active / inactive call. The stated detection limit is 0.0005 µg/ml; values near or below 0.001 µg/ml lie at the floor of the assay.

B1: BD56-522 (protein)
chain 1: QVQLVESGGGVVQPGRSLRLSCAASGFTFSNYAMHWVRQAPGKGLEWVAVILYDGSYKAYADSVKGRFTISRDNSKNTLYLQMNSLRADDTAVYYCARDQGVTVTHFDYWGQGTLVTISS
chain 2: DIQMTQSPSSLSASIGDRVTITCRASQRIGSYLNWYQQKPGKAPKLLIYTTSSLQSGVPSRFSGSGSGTDFTLTISNLQPEDFATYYCQQSYNTPPWTFGQGTKVEIK
B2: BD56-511 (protein)
chain 1: QVQLQESGPGLVKPSETLSLTCTVSGASISSNSYYWGWIRQPPGKGLEWIGSIYFRGDTYYKPSLQSRVTISVDTSKNQFSLNLNSVTAADTAVYYCAEGFCLSPNCYGPDYYFDKWGQGTLVTVSS
chain 2: SYELTQPPSMSVSPGQTARITCSGNAFPNQYAYWYQQKPGQAPVVVIYKDIERPSGIPERFSGSSSGTTVTLTINGVQAEDEADYYCQSADASGVEFGGGTKLTVL
B3: BD56-520 (protein)
chain 1: EVQLVESGGGLVQPGGSLRLSCAASGFTFSNYWMTWVRQGQGKGLDWVANINQHGSEKSYVDSVKGRFTVSRDNAKNSLYLQMNSLRAEDTAVYYCARAWSPSSCYYDNSDYYGCAFGIWGQGTMVTVSS
chain 2: DIQMTQSPSSLSASVGDSVAITCRASQTVSRYLNWYQQKPGKAPRLLIYAASSLQSGVPSRFSGSGSGTDFTLTISSLQPEDFATYYCQQSYSTPPTFGQGTRLEIK
B4: BD56-524 (protein)
chain 1: QVTLRESGPALVKPTQTLTLTCTFSGFSLTTSGLCVTWVRQPPGKALEWLALIDWDDDKKYSTSLKTRLTISKDTSRNQVVLTMTNMDPVDTATYYCARAFYDYDSSNYFNGFGFDFWGRGILVTVSS
chain 2: EIVLTQSPGTLSLSPGERATLSCRASQSIDSRYLVWYQQKPGQAPRLIIYGASRRATGIPDRFSGSGSGTDFTLTISRLEPEDFAVYYCQQFGSSPWTFGQGTKVEFK
B5: BD56-515 (protein)
chain 1: QVQLQESGPGLMKPSGTLSLTCAVSGDSISRNTWWGWVRQPPGKGLEWIGEIYHSGSTNYNPSLESRVTISIDKSKNQFSLKLNSLTAADTALYYCAKGGSGSSFLAYYFDYWGRGTLVTVSS
chain 2: EIVMTQSPATLSVSPGEKATLSCRASQSISTHLAWYQQKPGQAPRLLIYGASTRATGIPARFSGSGSVTEFTLTISSLQSEDFAVYYCQQYNNWPPMYTFGQGTKLEIK
B6: DH1155 (protein)
chain 1: QVQLQESGPGLVKPSGTLSLTCAVSGGSISSSNWWSWVRQPPGKGLEWIGEIYHSGSTNYNPSLKSRVTISVDKSKNQFSLKLSSVTAADTAVYYCAMVQGVMVYWGQGTLVTVSS
chain 2: DIQMTQSPSSLSASVGDRVTITCRASQGISNSLAWYQQKPGKAPKLLLYAASRLESGVPSRFSGSGSGTDYTLTISSLQPEDFATYYCQQYYSTLGRTFGQGTKVEIK
B7: BD56-510 (protein)
chain 1: QVQLVQSGAEVKKPGSSVKVSCKASGGTFSNNAINWVRQAPGQGLEWMGRIIPIFDITNYAQQFQGRVTITADKSTSAAYMELSRLRSADTAVYYCARGGMVGAEYYFDDWGQGTLVTVSS
chain 2: DIVMTQSPDSLAVSLGERATINCKSSQSLLYSSNNENHLAWYQQKPGQPPKLLLYWSSTRASGVPDRFSGSGSGTDFTLTISGLQAEDVAVYYCQQYYSTSSRTFGQGTKVEIK
B8: BD56-509 (protein)
chain 1: QITLKESGPTLVKPTQTLTLTCTFSGFSLSTGGVAVGWVRQPPGKALEWLALLYWDDDKRYSPSLENRLTITKGSSKNQVVLTMTNMDPLDTAKYYCAHMTDTSTLFDYWGQGTLVTVSS
chain 2: QSALTQPASVSGSPGQSVTISCTGASSDVGDYNYVSWYQQHPGKAPKVLIYDVTKRPSGVSNRFSGSKSGNTASLTISGLQTEDEADYYCCSYTTTSVVFGGGTKLTVL
B9: DH1193 (protein)
chain 1: QVQLVESGGGVVQPGRSLRLSCAASGFTFSNYGMHWVRQAPGKGLEWVTVISYDGSNKYYADSVKGRFTISRDNSKNTLYLQMNSLRAEDTAVYYCAKVLTWSIHPEDYYYGMDVWGQGTTVTVSS
chain 2: QSALTQPPSASGSPGQSVTISCTGTSSDVGGYNYVSWYQQHPGKAPKLMIYEVSQRPSGVPDRFSGSKSGNTASLTVSGLQAEDEADYYCSSYAGSNIGVFGGGTTLTVL
B10: BD56-518 (protein)
chain 1: QVQLVQSGSELKKPGASVKVSCKASGYTLVNYAMNWVRQAPGQGLEWMGWINTKTGDPVYAQGFTGRFVFSLDTSVNTAYLQISSLKAEDTAVYYCARDSGLLSFGELFHAFDIWGRGTMVTVSS
chain 2: EIVLTQSPATLSLSPGERATLSCRASQSLNSYLVWYQQRPGQAPRLLIYDASKRATGIPARFSGSGSGTDFTLTITGLEPEDFAVYYCQQRTNWLWTFGQGTKVEIK
B11: BD56-506 (protein)
chain 1: EVQLVESGGGLIQPGGSLRLSCAASGFTVSSRYMNWVRQGPGKGLEWVSVIYTGGTTFYADSVKGRFTISRDNSKNSLYLQMNSLRHDDTALYYCARGQQEGWLQSGGFDIWGQGTMVTVSS
chain 2: QSALTQPPSASGSPGQSVTISCTGTSSDVGGSNYVSWYQQYPGKAPKLIISEVSKRPSGVPDRFSGSKSGNTASLTVSGLQAEDEADYYCSAYAGSHNFVFGTGTKVTVL
B12: BD56-505 (protein)
chain 1: QVQLVESGGGVVQPGRSLRVSCAASGFNFNTYGMHWVRQAPGKGLEWVALIWYDGSNKDYADSVKGRFTISRDNSKSTVYLQMNSLTAQDTAVYYCAKDRAAVDDAFEMWGQGTMVTVSS
chain 2: DIQMTQSPSSLSASVGDRVTLTCRASQSISSYLNWYQQKPGKAPKLLIYGASSLQSGVPSRFSGSGSGTDFTLTISSVQPEDFATYFCQQSYSNPYTFGLGTKLEIK

The binders below were run against SARS-CoV-2 Omicron BA.1 spike pseudovirus (assay: pseudovirus neutralization IC50; higher = weaker neutralization).
Experimental: (§1)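 Single-round VSV luciferase pseudovirus mixed with antibody dilutions for 1 h and put on Huh-7 cells for about a day; IC50 from the dose curve.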
In the case of B1, the “pseudovirus neutralization IC50” value is reported as 6.32 µg/mL. In the case of B2, the “pseudovirus neutralization IC50” value is reported as 1.46 µg/mL. With B3 the “pseudovirus neutralization IC50” value was 0.0345 µg/mL. For B4, the “pseudovirus neutralization IC50” value was 0.0024 µg/mL. With B5 the “pseudovirus neutralization IC50” value was > 10 µg/mL. B6 was tested, and the “pseudovirus neutralization IC50” value was > 10 µg/mL. B7 was tested, and the “pseudovirus neutralization IC50” value was 0.00123 µg/mL. With B8 the “pseudovirus neutralization IC50” value was 0.001 µg/mL. In the case of B9, the “pseudovirus neutralization IC50” value is reported as 2.88 µg/mL. For B10, the “pseudovirus neutralization IC50” value was 0.0148 µg/mL. With B11 the “pseudovirus neutralization IC50” value was 0.001 µg/mL. B12 was tested, and the “pseudovirus neutralization IC50” value was 0.018 µg/mL.

These binders were tested against SARS-CoV-2 Omicron BA.2 spike pseudovirus in the same assay as above.
Experimental: as §1
In the case of B1, the “pseudovirus neutralization IC50” value is reported as 5.77 µg/mL. For B2, the “pseudovirus neutralization IC50” value was 1.76 µg/mL. In the case of B3, the “pseudovirus neutralization IC50” value is reported as 0.0741 µg/mL. For B4, the “pseudovirus neutralization IC50” value was 0.0005 µg/mL. In the case of B5, the “pseudovirus neutralization IC50” value is reported as > 10 µg/mL. In the case of B6, the “pseudovirus neutralization IC50” value is reported as > 10 µg/mL. With B7 the “pseudovirus neutralization IC50” value was 0.000515 µg/mL. B8 was tested, and the “pseudovirus neutralization IC50” value was 0.000969 µg/mL. For B9, the “pseudovirus neutralization IC50” value was 3.29 µg/mL. With B10 the “pseudovirus neutralization IC50” value was 0.00743 µg/mL. In the case of B11, the “pseudovirus neutralization IC50” value is reported as 0.000482 µg/mL. In the case of B12, the “pseudovirus neutralization IC50” value is reported as 0.000935 µg/mL.

The binders below were run against SARS-CoV-2 Omicron BA.2.75 spike pseudovirus in the same assay as above.
Experimental: as §1
In the case of B1, the “pseudovirus neutralization IC50” value is reported as 9.19 µg/mL. B2 was tested, and the “pseudovirus neutralization IC50” value was 3.57 µg/mL. With B3 the “pseudovirus neutralization IC50” value was 0.0725 µg/mL. In the case of B4, the “pseudovirus neutralization IC50” value is reported as 0.000878 µg/mL. B5 was tested, and the “pseudovirus neutralization IC50” value was > 10 µg/mL. In the case of B6, the “pseudovirus neutralization IC50” value is reported as > 10 µg/mL. In the case of B7, the “pseudovirus neutralization IC50” value is reported as 0.00259 µg/mL. For B8, the “pseudovirus neutralization IC50” value was 0.000752 µg/mL. With B9 the “pseudovirus neutralization IC50” value was 2.54 µg/mL. For B10, the “pseudovirus neutralization IC50” value was > 10 µg/mL. For B11, the “pseudovirus neutralization IC50” value was 0.00136 µg/mL. In the case of B12, the “pseudovirus neutralization IC50” value is reported as 0.00341 µg/mL.

These binders were tested against SARS-CoV-2 Omicron BA.5 spike pseudovirus in the same assay as above.
Experimental: as §1
B1 was tested, and the “pseudovirus neutralization IC50” value was 5.06 µg/mL. In the case of B2, the “pseudovirus neutralization IC50” value is reported as 3.5 µg/mL. With B3 the “pseudovirus neutralization IC50” value was 0.0706 µg/mL. For B4, the “pseudovirus neutralization IC50” value was 0.000509 µg/mL. With B5 the “pseudovirus neutralization IC50” value was > 10 µg/mL. With B6 the “pseudovirus neutralization IC50” value was > 10 µg/mL. For B7, the “pseudovirus neutralization IC50” value was 0.228 µg/mL. In the case of B8, the “pseudovirus neutralization IC50” value is reported as 0.000878 µg/mL. With B9 the “pseudovirus neutralization IC50” value was 2.86 µg/mL. In the case of B10, the “pseudovirus neutralization IC50” value is reported as > 10 µg/mL. B11 was tested, and the “pseudovirus neutralization IC50” value was 0.669 µg/mL. For B12, the “pseudovirus neutralization IC50” value was 0.00355 µg/mL.

What follows are binders tested against SARS-CoV-2 Omicron BQ.1.1 spike pseudovirus in the same assay as above.
Experimental: as §1
For B1, the “pseudovirus neutralization IC50” value was 4.56 µg/mL. In the case of B2, the “pseudovirus neutralization IC50” value is reported as 4 µg/mL. With B3 the “pseudovirus neutralization IC50” value was > 10 µg/mL. In the case of B4, the “pseudovirus neutralization IC50” value is reported as > 10 µg/mL. B5 was tested, and the “pseudovirus neutralization IC50” value was > 10 µg/mL. In the case of B6, the “pseudovirus neutralization IC50” value is reported as > 10 µg/mL. B7 was tested, and the “pseudovirus neutralization IC50” value was > 10 µg/mL. With B8 the “pseudovirus neutralization IC50” value was > 10 µg/mL. In the case of B9, the “pseudovirus neutralization IC50” value is reported as > 10 µg/mL. For B10, the “pseudovirus neutralization IC50” value was > 10 µg/mL. B11 was tested, and the “pseudovirus neutralization IC50” value was > 10 µg/mL. In the case of B12, the “pseudovirus neutralization IC50” value is reported as > 10 µg/mL.

The binders below were run against SARS-CoV-2 Omicron XBB spike pseudovirus in the same assay as above.
Experimental: as §1
B1 was tested, and the “pseudovirus neutralization IC50” value was 4.27 µg/mL. With B2 the “pseudovirus neutralization IC50” value was 3.26 µg/mL. For B3, the “pseudovirus neutralization IC50” value was > 10 µg/mL. B4 was tested, and the “pseudovirus neutralization IC50” value was > 10 µg/mL. For B5, the “pseudovirus neutralization IC50” value was > 10 µg/mL. For B6, the “pseudovirus neutralization IC50” value was > 10 µg/mL. For B7, the “pseudovirus neutralization IC50” value was > 10 µg/mL. B8 was tested, and the “pseudovirus neutralization IC50” value was > 10 µg/mL. With B9 the “pseudovirus neutralization IC50” value was 2.51 µg/mL. B10 was tested, and the “pseudovirus neutralization IC50” value was > 10 µg/mL. With B11 the “pseudovirus neutralization IC50” value was > 10 µg/mL. With B12 the “pseudovirus neutralization IC50” value was > 10 µg/mL.

These binders were tested against SARS-CoV-2 early D614G spike pseudovirus in the same assay as above.
Experimental: as §1
For B1, the “pseudovirus neutralization IC50” value was 1.01 µg/mL. With B2 the “pseudovirus neutralization IC50” value was 1.55 µg/mL. In the case of B3, the “pseudovirus neutralization IC50” value is reported as 0.0342 µg/mL. With B4 the “pseudovirus neutralization IC50” value was 0.001 µg/mL. B5 was tested, and the “pseudovirus neutralization IC50” value was > 10 µg/mL. In the case of B6, the “pseudovirus neutralization IC50” value is reported as 0.213 µg/mL. In the case of B7, the “pseudovirus neutralization IC50” value is reported as 0.00137 µg/mL. For B8, the “pseudovirus neutralization IC50” value was 0.001 µg/mL. B9 was tested, and the “pseudovirus neutralization IC50” value was 1.36 µg/mL. For B10, the “pseudovirus neutralization IC50” value was 0.00506 µg/mL. B11 was tested, and the “pseudovirus neutralization IC50” value was 0.00115 µg/mL. In the case of B12, the “pseudovirus neutralization IC50” value is reported as 0.017 µg/mL.
